Measured values published in publication PMC9426499, “The Specificity of ParR Binding Determines the Incompatibility of Conjugative Plasmids in Clostridium perfringens” (2018).

Molecular target: ParRC(pCW3) (Clostridium perfringens (plasmid pCW3))
Assay: AUC

ParRC(pCW3) (natural protein)
stoichiometry N: 4
